Tested on: other nAChR subtypes
Assay: two-electrode voltage clamp (TEVC), inhibition of ACh-evoked current in Xenopus oocytes, other nAChR subtypes
Settings: 10 μM TxID-F, ACh 100 μM (α7 200 μM; α1β1δε and α9α10 10 μM), -70 mV, 3–6 separate oocytes

Compound: CC[C@H](C)[C@@H]1NC(=O)[C@@H]2CCCN2C(=O)[C@H](CO)NC(=O)[C@H](CCSC)NC(=O)[C@H](C)NC(=O)[C@H](CO)NC(=O)[C@@H]2CSSC[C@H](NC(=O)CNC(=O)c3ccc(-c4c5ccc(=[N+](C)C)cc-5oc5cc(N(C)C)ccc45)c(C(=O)[O-])c3)C(=O)N[C@@H](CSSC[C@@H](C(N)=O)NC1=O)C(=O)N[C@@H](CO)C(=O)N[C@@H](Cc1c[nH]cn1)C(=O)N1CCC[C@H]1C(=O)N[C@@H](C(C)C)C(=O)N2 [TxID-F]
- inhibitory activity at the other nAChR subtypes (in words): almost no activity
